Values from PubChem BioAssay AID1259414 (Drosophila RNAi Screening Center, 2018).

- Purpose: 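Fly genes that alter Wolbachia amount inside host cells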 (primary screen)
- Cells: Drosophila JW18 cells infected with Wolbachia
- Reagents: long dsRNA against Drosophila genes, 0.25 µg dsRNA per well of a 384-well plate
- Timing: 5 days
- Treatment: cells persistently infected with Wolbachia before knock-down; no added drug
- Measurement: 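Automated imaging of bacterial rRNA staining divided by host cell count, reported as plate-normalised robust z-score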
- Direction: Wolbachia per cell robust z: higher = more Wolbachia per host cell than the plate typical
- Active means: 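Active if absolute robust z reaches 1.5 in two or more of three replicates, leaving out multi- or no-target dsRNAs, genes unexpressed in JW18 and A1 wells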
In all, the deposit lists about 24,000 reagents; this is a random part of those that have a named target and a result. In the full data, about 1,210 (5%) got an active call. 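Inactive calls also include excluded dsRNAs with several or no targets, genes unexpressed in JW18, and well A1, regardless of score.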 Reagents against one gene are numbered here. A plus sign joins genes that one reagent is predicted to hit.

| predicted target | reagent no. | Wolbachia per cell robust z, rep 1 | Wolbachia per cell robust z, rep 2 | Wolbachia per cell robust z, rep 3 | Outcome |
| --- | --- | --- | --- | --- | --- |
| msps | 1 | 2.18 | 0.469 | 0.319 | inactive |
| smash | 1 | -2.19 | 0.473 | -1.22 | inactive |
| smash | 2 | -0.0811 | -1.56 | -4.69 | active |
| smash | 3 | -0.412 | -1.26 | -0.433 | inactive |
| smash | 4 | -1.56 | -0.71 | -0.935 | inactive |
| smash | 5 | -2.21 | -1.71 | -1.06 | active |
| yellow-f | 1 | 0.8 | 0.436 | 0.846 | inactive |
| yellow-f | 2 | 0.275 | -4.52 | 0.511 | inactive |
| CG12995 | 1 | -0.487 | -0.5 | 0.268 | inactive |
| CG12995 | 2 | -0.479 | 0.353 | -0.229 | inactive |
| CG14826 | 1 | -4.77 | 0.0526 | -6.42 | inactive |
| CG15084 | 1 | 0.268 | -0.0186 | 0.35 | inactive |
| CG15084 | 2 | 0.952 | -0.118 | 0.337 | inactive |
| CG15084 | 3 | 0.0989 | -0.54 | -1.26 | inactive |
| CG5112 | 1 | 0.441 | -1.05 | 0.308 | inactive |
| CG14227 | 1 | 0.393 | -1.12 | 0.207 | inactive |
| CG14227 | 2 | 0.0898 | -0.677 | -0.139 | inactive |
| Manf | 1 | 0.0588 | 0.338 | 1.33 | inactive |
| PolQ | 1 | 1.68 | -4.6 | -5.92 | active |
| Cpr49Ad | 1 | -0.38 | 0.317 | -0.164 | inactive |
| CG15142 | 1 | 1.37 | 0.806 | 0.438 | inactive |
| CG15142 | 2 | -0.221 | 0.422 | -0.519 | inactive |
| CG10338 | 1 | -2.77 | -0.801 | -0.377 | inactive |
| vimar | 1 | 1.8 | 0.855 | 1.28 | inactive |
| snRNA:U1:95Cb + snRNA:U1:95Cc | 1 | -0.644 | 0.162 | -5.51 | inactive |
| TBC1d7 | 1 | -4.66 | 0.781 | -0.555 | inactive |
| CG34161 | 1 | -3.14 | -1.12 | 0.9 | inactive |
| CG7091 | 1 | 1.15 | 0.218 | 0.777 | inactive |
| CG7091 | 2 | 0.167 | 0.562 | 0.672 | inactive |
| Ugt35E1 | 1 | -0.0431 | 0.285 | 0.783 | inactive |
| Ugt35E1 | 2 | -0.207 | -2.04 | -1.32 | inactive |
| amd | 1 | 0.757 | 0.387 | 0.617 | inactive |
| amd | 2 | 0.663 | -0.085 | 0.128 | inactive |
| Cpr100A | 1 | 0.198 | 0.204 | 1.54 | inactive |
| Cpr100A | 2 | 0.0902 | -0.285 | 0.485 | inactive |
| chif | 1 | 1.67 | 2.05 | 0.442 | active |
| CG4960 | 1 | -0.676 | 0.947 | -0.0917 | inactive |
| CG4960 | 2 | -1.74 | -1 | 0.113 | inactive |
| CG7208 | 1 | 0.33 | -0.0671 | -2.32 | inactive |
| CG7208 | 2 | 1.12 | -0.442 | -0.459 | inactive |
| Pdhb | 1 | 1.29 | -0.437 | -1.76 | inactive |
| Pdhb | 2 | 0.638 | 1.61 | -5.23 | inactive |
| Pdhb | 3 | -2.5 | -1.28 | -0.878 | inactive |
| CG15740 | 1 | -0.608 | -0.0462 | 0.958 | inactive |
| CG15740 | 2 | -0.587 | 0.0968 | -0.866 | inactive |
| CG15740 | 3 | 0.275 | -0.208 | -1.59 | inactive |

In a second layout: entries from further up
vimar | Wolbachia per cell robust z, rep 1 = 1.8; Wolbachia per cell robust z, rep 2 = 0.855; Wolbachia per cell robust z, rep 3 = 1.28; Outcome = inactive
snRNA:U1:95Cb + snRNA:U1:95Cc | Wolbachia per cell robust z, rep 1 = -0.644; Wolbachia per cell robust z, rep 2 = 0.162; Wolbachia per cell robust z, rep 3 = -5.51; Outcome = inactive
